A mixed list of measured activities; the numbers were collected in NIAID ChemDB.

Common to all: target-level tests; species: Hepatitis C virus; target: NS3 protease

ICn is the concentration giving n% inhibition. a–b is a range or a potency band. Conditions beyond the fields shown may differ between rows. Blank or dashed fields: not listed here. Percent inhibition refers to the dose given; in toxicity tests it is the harm to the cells.

| structure | strain or isolate | method | dose | measure | value |
|---|---|---|---|---|---|
| CCCC(C(=O)N[C@H](C(=O)N1C[C@H](OCc2ccccc2)C[C@H]1C(=O)N[C@H](C=O)CC)C(C)C)c1ccccc1 | - | - | - | Ki | 1–100 µM |
| CC(C)C[C@H](NC(=O)[C@H](CC(C(=O)O)C(=O)O)NC(=O)[C@@H](N)CC(=O)O)C(=O)N[C@@H](CCC(=O)O)C(=O)N[C@@H](CC1CCCCC1)C(=O)N[C@@H](CS)C(=O)O | - | - | - | IC50 | 0.055 µM |
| CC(=O)N[C@H](C(=O)N[C@H](C(=O)N1C[C@H](Oc2ccnc3c(C(F)(F)F)cccc23)CC1C(=O)NC1(C(=O)O)CC1)C(C)C)C1CCCCC1 | - | - | - | IC50 | 6 µM |
| CC(C)C[C@H](NC(=O)[C@H](CCC(=O)O)NC(=O)[C@@H](N)CC(=O)O)C(=O)N[C@@H](CCC(=O)O)C(=O)N[C@@H](CC1CCCCC1)C(=O)N[C@H](C(=O)O)C(C)C | - | - | - | IC50 | 4 µM |
| CC(=O)N[C@H](C(=O)N[C@H](C(=O)N1C[C@H](Sc2ccc(Br)cc2)CC1C(=O)NC1(C(=O)O)CC1)C(C)C)C1CCCCC1 | - | - | - | IC50 | 40 µM |
| CC[C@@H](C=O)NC(=O)[C@@H]1C[C@@H](OCc2noc(-c3ccccc3)n2)CN1C(=O)[C@@H](NC(=O)[C@@H](NC(=O)c1cnccn1)C(C)C)C(C)C | - | - | - | Ki | 1–100 µM |
| CC[C@@H](C)[C@H](NC(=O)[C@H](CC(C)C)NC(=O)[C@@H](CCC(=O)O)NC(=O)[C@H](CC(=O)O)NOC(=O)CCC(=O)O)C(=O)N[C@@H](CC1CCCCC1)C(=O)NC1(C(=O)O)CC1 | - | - | - | Ki | 0.091 µM |
| CC[C@@H](C=O)NC(=O)[C@@H]1C[C@@H](OCc2cccc(OC(F)(F)F)c2)CN1C(=O)[C@@H](NC(=O)[C@@H](NC(=O)c1cnccn1)C(C)C)C(C)C | - | - | - | Ki | 1–100 µM |
| CCC[C@H](NC(=O)[C@H](CC1CCCCC1)NC(=O)[C@@H](NC(=O)[C@H](CC(C)C)NC(=O)[C@@H](CCC(=O)O)NC(=O)[C@H](CC(=O)O)NOC(=O)CCC(=O)O)[C@H](C)CC)c1nn[nH]n1 | - | - | - | Ki | 0.16 µM |
| CC(C)C[C@H](NC(=O)[C@H](CC(=O)O)NC(=O)[C@@H](N)CC(=O)O)C(=O)N[C@@H](CCC(=O)O)C(=O)N[C@@H](CC1CCCCC1)C(=O)N[C@@H](CS)C(=O)O | - | - | - | IC50 | 0.29 µM |
| C=C[C@@H]1C[C@]1(NC(=O)[C@@H]1C[C@@H](Oc2cc(-c3ccccc3)nc3cc(CO)ccc23)CN1C(=O)[C@H]1NCSC1(C)C)C(=O)O | 1b | radiometric | - | IC50 | 1.6 µM |
| CC[C@H](NC(=O)[C@@H]1C[C@@H](Oc2cc(-c3ccccc3)nc3cc(OC)ccc23)C[C@H]1C(=O)N[C@H](C(=O)N[C@H](C(=O)OC)C1CCCCC1)C(C)C)C(=O)O | - | - | 10 µM | inhibition | 65% |
| C=C[C@@H]1C[C@]1(NC(=O)[C@@H]1C[C@@H](Oc2cc(-c3ccccc3)nc3cc(CO)ccc23)CN1C(=O)[C@@H](N)C(C)(C)C)C(=O)O | 1b | radiometric | - | IC50 | 3 µM |
| CCC[C@H](NC(=O)[C@@H]1C[C@@H](Oc2cc(-c3ccccc3)nc3cc(OC)ccc23)C[C@H]1C(=O)N[C@H](C(=O)N[C@@H](C(=O)OC)C1CCCCC1)C(C)C)C(=O)O | - | - | 10 µM | inhibition | 37% |
| CC[C@@H](C=O)NC(=O)[C@@H]1C[C@@H](OCc2csc3ccc(Cl)cc23)CN1C(=O)[C@@H](NC(=O)[C@@H](NC(=O)c1cnccn1)C(C)C)C(C)C | - | - | - | Ki | 1–100 µM |
| CCC[C@H](NC(=O)[C@H](CC1CCCCC1)NC(=O)[C@@H](NC(=O)[C@H](CC(C)C)NC(=O)[C@@H](CCC(=O)O)NC(=O)[C@H](CC(=O)O)NOC(=O)CCC(=O)O)[C@H](C)CC)C(=O)O | - | - | - | Ki | 0.22 µM |
| CC[C@H](NC(=O)[C@@H]1C[C@@H](Oc2cc(-c3ccccc3)nc3cc(OC)ccc23)C[C@H]1C(=O)N[C@@H](C(=O)N[C@@H](C(=O)OC)C1CCCCC1)C(C)C)C(=O)O | - | - | 10 µM | inhibition | 21% |
| CC[C@@H](C=O)NC(=O)[C@@H]1C[C@@H](OCc2ccccc2)CN1C(=O)[C@@H](NC(=O)c1cc2ccccc2[nH]1)C(C)C | - | - | - | Ki | 1–100 µM |
| CC(=O)N[C@H](C(=O)N[C@H](C(=O)N1C[C@H](Oc2cccc(-c3ccccc3)c2)C[C@H]1C(=O)NC1(C(=O)O)CC1)C(C)C)C1CCCCC1 | - | - | - | IC50 | 6 µM |
| CC[C@@H](C=O)NC(=O)[C@@H]1C[C@@H](OCc2ccc(Cl)c(Cl)c2)CN1C(=O)[C@@H](NC(=O)[C@@H](NC(=O)c1cnccn1)C(C)C)C(C)C | - | - | - | Ki | 1–100 µM |
| CC(=O)N[C@H](C(=O)N[C@H](C(=O)N1C[C@H](Sc2nc3ccccc3s2)CC1C(=O)NC1(C(=O)O)CC1)C(C)C)C1CCCCC1 | - | - | - | IC50 | 20 µM |
| CC[C@@H](C=O)NC(=O)[C@@H]1C[C@@H](OCc2ccccc2)CN1C(=O)[C@@H](NC(=O)[C@@H](NC(=O)c1cnccn1)c1ccccc1)C(C)C | - | - | - | Ki | 1–100 µM |
| CC(C)C[C@H](NC(=O)[C@@H](CC(=O)O)NC(=O)[C@@H](N)CC(=O)O)C(=O)N[C@@H](CCC(=O)O)C(=O)N[C@@H](CC1CCCCC1)C(=O)N[C@@H](CS)C(=O)O | - | - | - | IC50 | 0.12 µM |

The last 2 rows once more:

structure | strain or isolate | method | dose | measure | value
CC[C@@H](C=O)NC(=O)[C@@H]1C[C@@H](OCc2ccccc2)CN1C(=O)[C@@H](NC(=O)[C@@H](NC(=O)c1cnccn1)c1ccccc1)C(C)C | - | - | - | Ki | 1–100 µM
CC(C)C[C@H](NC(=O)[C@@H](CC(=O)O)NC(=O)[C@@H](N)CC(=O)O)C(=O)N[C@@H](CCC(=O)O)C(=O)N[C@@H](CC1CCCCC1)C(=O)N[C@@H](CS)C(=O)O | - | - | - | IC50 | 0.12 µM